Laboratory results published in patent US20220220106A1, “QUINOLINE COMPOUNDS AND PHARMACEUTICAL COMPOSITIONS AND USES THEREOF” (Academy of Military Medical Sciences, priority 2019, published 2022).

The molecules below were run on Enterovirus 71 (EV71) H strain (assay: In vitro anti-EV71 activity (antiviral activity in RD cells, CellTiter-Glo)). Conditions: selection index SI=TD50/IC50.
Assay type: cell-based
Protocol: According to the mass and molecular weight of the compound to be tested, the compound to be tested was dissolved to 100 mM (mmol/L) with DMSO.
Detection of Antiviral Activity:
(1) First, the compound to be tested was diluted to 800 μM with cell maintenance solution (DMEM+2% FBS, Gibco, catalog numbers: 11995-065, 1600-044), and three-fold gradient dilution was performed to prepare 10 concentrations in total. The diluted compound was added to a 96-well plate with white wall and transparent bottom, 50 μl per well. To both the cell control group and the virus control group, an equal volume of the cell maintenance solution was added.
(2) EV71 virus (purchased from ATCC) was taken out from the −80° C. refrigerator and equilibrated to room temperature.
(3) The virus seed was diluted with a virus growth solution (DMEM+2% FBS, Gibco, catalog numbers: 11995-065, 1600-044) to 100TCID50, the diluted virus seed was added to the 96-well plate of (1), with […] per well. The same volume of the virus growth solution was added to the cell control group.
(4) RD cells (purchased from ATCC) were inoculated at a concentration of 1*10^5/mL into the 96-well plate of (1), with 100 μL per well, to reach a final volume of 200 μL per well. The final concentration of drug was 0.25 times the initial concentration.
(5) RD cells were cultured at 37° C. for 4 days for testing.
(6) The Buffer of CellTiter-Glo® luminescent cell viability assay reagent (Promega) was mixed with the substrate in the dark to prepare a working solution.
(7) The culture medium in the plate was discarded, the plate was dried by patting, 100 μL of the detection reagent was added to each well, and the 96-well plate was shaken on an orbital shaker for 4 minutes to induce cell lysis. After keeping in the dark and subjecting to signal stabilization for 15 minutes, the chemiluminescence unit was detected by using MD5 microplate reader (Molecular Devices), and the plate reading program was performed according to the CellTiter-Glo preset program.
The inhibition rate-concentration curve was fitted to S-curve by using origin8.0 software to calculate the IC50 value of the compound to be tested.
The formula for calculating the inhibition rates of drug at different dilution degrees was as follows: inhibition rate (%)=(average value of cell control group−value of experimental group)/(average value of cell control group−minimum value of experimental group)*100
The inhibition rate-concentration curve was fitted to S-curve by using origin8.0 software, and the IC50 value of the compound to be tested was calculated. The same method was used to calculate the TD50 value, and the selection index SI=TD50/IC50 was calculated according to the half maximal inhibitory concentration IC50 and the median toxic dose TD50.

Row | Compound | SI
1 | O=C(Nc1ccc(-c2ccc3ncc4ccc(=O)n(-c5cccc(C(F)(F)F)c5)c4c3c2)cn1)OCc1ccccc1 [HTL-7-14, 9-[3-(6-benzyloxyamido)pyridyl]-2-oxo-1-[3-(trifluoromethyl)phenyl]-1,2-dihydrobenzo[h][1,6]naphthyridine] | 0.04
2 | CC(=O)/C=C/c1cnc2ccc(-c3ccc(N)cc3)cc2c1Nc1cccc(C(F)(F)F)c1 [HTL-2-35, (E)-6-(4-amino)phenyl-4-[3-(trifluoromethyl)phenyl]aminoquinoline-3-butenone] | 1.39
3 | NC(=O)NC/C=C/c1ccc2ncc3oc(=O)n(-c4cccc(C(F)(F)F)c4)c3c2c1 [HTL-6-34, (E)-8-(3-ureido-propenyl)-1-[3-(trifluoromethyl)phenyl]oxazolo[5,4-c]quinolin-2(1H)-one] | 1.36
4 | CCOC(=O)/C=C/c1ccc2ncc3ccc(=O)n(-c4cccc(C(F)(F)F)c4)c3c2c1 [HTL-7-26, (E)-9-[2-ethoxycarbonyl-vinyl]-2-oxo-1-[3-(trifluoromethyl)phenyl]-1,2-dihydrobenzo[h][1,6]naphthyridine] | 4.61
5 | CC(=O)/C=C/c1cnc2ccc(-c3cn[nH]c3)cc2c1Nc1cccc(C(F)(F)F)c1 [HTL-3-26, (E)-6-(1H-4-pyrazolyl)-4-[3-(trifluoromethyl)phenyl]aminoquinoline-3-butenone] | 1.68
6 | O=c1ccc2cnc3ccc(-c4ccc5ncccc5c4)cc3c2n1-c1cccc(C(F)(F)F)c1 [HTL-6-47, 9-(6-quinolyl)-2-oxo-1-[3-(trifluoromethyl)phenyl]-1,2-dihydrobenzo[h][1,6]naphthyridine] | 0.12
